Data on 6 molecules can be found in paper PMC9606274, “A dataset comprised of binding interactions for 104,972 antibodies against a SARS-CoV-2 peptide” (Scientific Data, 2022).

First the molecules themselves.
T1: SARS-CoV-2 target peptide PDVDLGDISGINAS (HR2 region of the spike protein) (SARS-CoV-2)
T1 chain: PDVDLGDISGINAS

B1: Ab-91 scFv, heavy-light orientation (scFv, V domains shown)
VH: EVQLVESGGGLVQPGRSLRLSCAASGFTFDDYAMHWVRQAPGKGLEWVSGISWNSGSIGYADSVKGRFTISRDNAENSLYLQMNSLRAEDTALYYCAKVGRGGGYFDYWGQGTLVTVSS
VL: QAVLTQPSSLSASPGASVSLTCTLRSGINVGTYRIYWYQQKPGSPPQYLLRYKSDSDKQQGSGVPSRFSGSKDASANAGILLISGLQSEDEADYYCMIWHSSAWVFGGGTKLTVL
notes: also called Ab-91-HL
B2: Ab-91 scFv, light-heavy orientation (scFv, V domains shown)
VH: EVQLVESGGGLVQPGRSLRLSCAASGFTFDDYAMHWVRQAPGKGLEWVSGISWNSGSIGYADSVKGRFTISRDNAENSLYLQMNSLRAEDTALYYCAKVGRGGGYFDYWGQGTLVTVSS
VL: QAVLTQPSSLSASPGASVSLTCTLRSGINVGTYRIYWYQQKPGSPPQYLLRYKSDSDKQQGSGVPSRFSGSKDASANAGILLISGLQSEDEADYYCMIWHSSAWVFGGGTKLTVL
notes: also called Ab-91-LH; seed 91
B3: Ab-95 scFv, heavy-light orientation (scFv, V domains shown)
VH: EVQLVESGAEVKKPGASVKVSCKASGYTFTSYGISWVRQAPGQGLEWMGWISAYNGNTNYAQKLQGRVTMTTDTSTSTAYMELRSLRSDDTAVYYCARVGRGVIDHWGQGTLVTVSS
VL: SSELTQDPAVSVALGQTVRITCEGDSLRYYYANWYQQKPGQAPILVIYGKNNRPSGIADRFSGSNSGDTSSLIITGAQAEDEADYYCSSRDSSGFQVFFGAGTKLTVL
notes: also called Ab-95-HL; seed 95
B4: Ab-95 scFv, light-heavy orientation (scFv, V domains shown)
VH: EVQLVESGAEVKKPGASVKVSCKASGYTFTSYGISWVRQAPGQGLEWMGWISAYNGNTNYAQKLQGRVTMTTDTSTSTAYMELRSLRSDDTAVYYCARVGRGVIDHWGQGTLVTVSS
VL: SSELTQDPAVSVALGQTVRITCEGDSLRYYYANWYQQKPGQAPILVIYGKNNRPSGIADRFSGSNSGDTSSLIITGAQAEDEADYYCSSRDSSGFQVFFGAGTKLTVL
notes: also called Ab-95-LH
B5: Ab-14 scFv, heavy-light orientation (scFv, V domains shown)
VH: EVQLVETGGGLVQPGGSLRLSCAASGFTLNSYGISWVRQAPGKGPEWVSVIYSDGRRTFYGDSVKGRFTISRDTSTNTVYLQMNSLRVEDTAVYYCAKGRAAGTFDSWGQGTLVTVSS
VL: DVVMTQSPESLAVSLGERATISCKSSQSVLYESRNKNSVAWYQQKAGQPPKLLIYWASTRESGVPDRFSGSGSGTDFTLTISSLQAEDAAVYYCQQYHRLPLSFGGGTKVEIK
notes: also called Ab-14-HL; seed 14
B6: Ab-14 scFv, light-heavy orientation (scFv, V domains shown)
VH: EVQLVETGGGLVQPGGSLRLSCAASGFTLNSYGISWVRQAPGKGPEWVSVIYSDGRRTFYGDSVKGRFTISRDTSTNTVYLQMNSLRVEDTAVYYCAKGRAAGTFDSWGQGTLVTVSS
VL: DVVMTQSPESLAVSLGERATISCKSSQSVLYESRNKNSVAWYQQKAGQPPKLLIYWASTRESGVPDRFSGSGSGTDFTLTISSLQAEDAAVYYCQQYHRLPLSFGGGTKVEIK
notes: also called Ab-14-LH

Bounds are passed on as bounds.

The test deals with T1, SARS-CoV-2 target peptide …. As to the kind of experiment: AlphaSeq (yeast mating with sequencing). As to conditions: partners not purified.
For B1, binding was characterised by a dissociation constant (Kd) of 3.39 nM.

For B2, the Kd was under 1 nM.

B3 had a Kd of under 1 nM.

B4 showed a Kd of under 1 nM.

B5 yielded a Kd of under 1 nM.

Take B6: the Kd is under 1 nM.
